Legend:
CT antibodies = format: binding
BT antibodies = format: binding; settings: BT 5 ng/ml; HAS 10 micrograms/ml

For “HAS: human serum albumin, an inert protein”, the “conductance response to injection” value (CT antibodies) was “No response was observed” and the “conductance response to injection” value (BT antibodies) was “No response was observed”.

Reference: patent US8232584B2 (priority 2005, dated 2012)
